A mixed list of measured activities; the numbers were collected in NIAID ChemDB.

Common to all: whole-cell or culture tests; organism: Mycobacterium tuberculosis

Inhibition is in % at the dose shown (toxicity tests: loss of growth or viability).

| SMILES | read by | endpoint | conditions | tested at | strain | value |
|---|---|---|---|---|---|---|
| CN(C)CNC(=S)S | - | MIC | - | - | EMB-R | 6.3 µg/mL |
| O=C(NN=Cc1ccncc1)c1ccccc1Sc1ccccc1 | resazurin | MIC90 | - | - | H37Rv | >50 µg/mL |
| C/C(=C\CC[C@H](C)C1CC[C@@H](C)c2c(O)cc(C)cc21)C1CC(=O)C=CO1 | resazurin | MIC | - | - | H37Rv | >200 µM |
| CCc1cc(C(N)=S)ccn1 | - | MIC | - | - | pMV261 ETH-resistant | 30 µg/mL |
| CC(C)=CCC[C@H](C)C1CC[C@@H](C)c2c1cc(C)c([N+](=O)[O-])c2O | resazurin | MIC | - | - | H37Rv | >200 µM |
| COc1ccc(/C=N/N=c2\scc(-c3cc4cc(Br)ccc4oc3=O)n2Cc2ccccc2)cc1 | - | inhibition | - | 6.25 µg/mL | H37Rv | <11% |
| O=C(NN=Cc1ccccc1)c1ccccc1Sc1ccccc1 | resazurin | MIC90 | - | - | H37Rv | >50 µg/mL |
| NC(=S)NNc1c([N+](=O)[O-])cnn(-c2ccccc2)c1=O | resazurin | MIC bound | - | - | H37Rv | >6.25 µg/mL |
| CO[C@H]1/C=C/O[C@@]2(C)Oc3c(C)c(O)c4c(O)c(c(/C=N/n5cnnc5)c(O)c4c3C2=O)NC(=O)/C(C)=C\C=C\[C@H](C)[C@H](O)[C@@H](C)[C@@H](O)[C@@H](C)[C@H](OC(C)=O)[C@@H]1C | - | MIC | - | - | H37Rv | >5 µg/mL |
| Cc1cn([C@H]2C=C[C@@H](CO)O2)c(=O)[nH]c1=O | - | EC50 | - | - | H37Rv | >6.25 µg/mL |
| O=c1[nH]nc(NC2Nc3ccccc3N2)c2ccccc12 | BACTEC | inhibition | - | 0.5 µM | - | 0% |
| CO[C@H]1/C=C/O[C@@]2(C)Oc3c(C)c(O)c4c(O)c(c(/C=N/N5CCN(C)CC5)c(O)c4c3C2=O)NC(=O)/C(C)=C\C=C\[C@H](C)[C@H](O)[C@@H](C)[C@@H](O)[C@@H](C)[C@H](OC(C)=O)[C@@H]1C | - | MIC | - | - | Isolate N | >2 µg/mL |
| O=C(O)c1cc(C(=O)O)cc(N2C(=O)c3ccccc3C2=O)c1 | BACTEC | inhibition | - | 12.5 µg/mL | H37Rv | -12% |
| Cc1c(C)[n+](=O)c2ccc(F)cc2n1[O-] | - | MIC | - | - | H37Rv | 125 µg/mL |
| O=S1(=O)OCCCCO1 | resazurin | inhibition | - | 6.25 µg/mL | H37Rv | 7% |
| CC1COc2c(N3CCN(C)CC3)c(F)cc3c(=O)c(C(=O)O)cn1c23 | - | MIC90 | - | - | 25 strains | 0.78 µg/mL |
| CO[C@H]1/C=C/O[C@@]2(C)Oc3c(C)c(O)c4c(O)c(c(C=Nc5ccc6ccccc6c5)c(O)c4c3C2=O)NC(=O)/C(C)=C\C=C\[C@H](C)[C@H](O)[C@@H](C)[C@@H](O)[C@@H](C)[C@H](OC(C)=O)[C@@H]1C | - | MIC | - | - | H37Rv | >1 µg/mL |
| Cc1ccc(NC(=O)c2cccc(F)c2)cc1Cl | BACTEC | MIC | - | - | H37Rv | 6.25 µg/mL |
| CCS(=O)(=O)c1ccc(/C=N/NC(=O)c2ccncc2)cc1 | - | MIC | - | - | - | 0.1 µg/mL |
| COC(=O)Cc1c(CC(=O)OC)[n+](=O)c2ccccc2n1[O-] | - | MIC | - | - | H37Rv | 250 µg/mL |
| CC(C)=CCC1=C(O)C(c2ccccc2)=CC(=O)C1=O | BACTEC | inhibition | - | 128 µg/mL | H37Rv | 98% |
| CNc1cc2nc3ccccc3n(-c3ccc(Cl)cc3)c-2cc1=NC(C)C | resazurin | MIC90 | - | - | H37Rv | 21.23 µg/mL |
| O=C(Cc1nn(Cc2ccc(Br)cc2F)c(=O)c2ccccc12)N/N=C/c1ccccc1[N+](=O)[O-] | - | MIC | - | - | Multidrug-resistant (MDR) | 0.18 µM |
| COCCc1c(C(=O)OC)[n+](=O)c2cc(Cl)c(Cl)cc2n1[O-] | - | EC90 | inside macrophages | - | H37Rv | >1.56 µg/mL |
| CC(C)=CCC[C@H](C)C1CC[C@@H](C)c2c1cc(C)c(Br)c2O | resazurin | MIC | - | - | H37Rv | >200 µM |
| CC(C)=CCC1C(=O)C(CC=C(C)C)(CC=C(C)C)C(O)C(C(=O)C(C)C)C1O | - | MIC | - | - | Isolate O | 40.6 µg/mL |
| O=c1ccc2ccc3occc3c2o1 | resazurin | EC50 | - | - | H37Ra | 65.1 µg/mL |
| Cc1cn2c(C(=O)NCc3ccc(N4CCSCC4)c(F)c3)c(C)nc2s1 | resazurin | MIC90 | - | - | H37Rv | <2 µM |
| CCN1C(=O)C(N2CCCCC2)S/C1=C\C(=O)O | BACTEC | inhibition | - | 12.8 µg/mL | H37Rv | 35% |
| C=C[C@@H](O)C#CC#C[C@@H](O)/C=C\CCCCCCC | resazurin | EC50 | - | - | H37Ra | 1.6 µg/mL |
| CC(C)N=c1cc2n(-c3cccnc3)c3ccccc3nc-2cc1Nc1cccnc1 | resazurin | MIC90 | - | - | H37Rv | 1.23 µg/mL |
| C/C(=C\CC[C@H](C)C1CC[C@@H](C)c2c(O)cc(C)cc21)CN | resazurin | MIC | - | - | H37Rv | 24.8 µM |
| O=C(Cc1nn(Cc2ccc(Br)cc2F)c(=O)c2ccccc12)N/N=C/c1cccc([N+](=O)[O-])c1 | - | MIC | - | - | Multidrug-resistant (MDR) | 0.37 µM |
| CO[C@H]1/C=C/O[C@@]2(C)Oc3c(C)c(O)c4c(O)c(c(C=O)c(O)c4c3C2=O)NC(=O)/C(C)=C\C=C\[C@H](C)[C@H](O)[C@@H](C)[C@@H](O)[C@@H](C)[C@H](OC(C)=O)[C@@H]1C | - | MIC | - | - | H37Rv | 0.1 µg/mL |
| Cc1nc2ccc(Cl)cn2c1C(=O)NCc1ccc2c(c1)CCO2 | resazurin | MIC90 | - | - | H37Rv | <2 µM |
| Nc1ccn([C@@H]2O[C@H](C(O[C@@H]3O[C@H](CO)[C@@H](O)[C@H](N)[C@H]3O)[C@@H](O)[C@@H](O)[C@@H](O)[C@@H](O)CO)[C@@H](N)[C@H](O)[C@H]2O)c(=O)n1 | - | MIC | - | - | RMP-R | 12.5 µg/mL |
| CCc1nc2ccc(Cl)cn2c1C(=O)NCc1ccc(N2CCSCC2)c(F)c1 | resazurin | MIC90 | - | - | H37Rv | <2 µM |
| Cc1cc(O)c2c(c1)C([C@@H](C)CCc1nn(C)cc1C)CC[C@H]2C | resazurin | MIC | - | - | H37Rv | >200 µM |
| NNC(=O)c1ccncc1 | visual reading | MIC | - | - | H37Rv | 0.312 µg/mL |
| Cc1cn([C@H]2C=C[C@@H](COC(=O)CN3CCN(c4cc5c(cc4F)c(=O)c(C(=O)O)cn5C4CC4)CC3)O2)c(=O)[nH]c1=O | - | EC50 | - | - | H37Rv | <6.25 µg/mL |
| NNC(=O)c1ccncc1 | - | MIC | - | - | Multidrug-resistant (MDR) | 45.57 µM |
| CCN(CC)CCNC(=O)c1nn(C)c(=S)[nH]c1=S | BACTEC | inhibition | - | 6.25 µg/mL | H37Rv | 77% |
| CC1(C)CC(=O)C(C=Nc2ccccc2O)=C(O)C1 | visual reading | MIC | - | - | H37Rv | 2.5 µg/mL |
| O=c1oc2ccc(Br)cc2cc1-c1cs/c(=N\N=C\c2ccc(Cl)cc2)n1Cc1ccccc1 | - | inhibition | - | 6.25 µg/mL | H37Rv | <11% |
| CCc1nc2cc(C)ccn2c1C(=O)NCc1cccc(S(F)(F)(F)(F)F)c1 | resazurin | MIC90 | - | - | H37Rv | <2 µM |
| O=c1oc2ccc(Br)cc2cc1-c1cs/c(=N\N=C\c2cc([N+](=O)[O-])ccc2O)n1Cc1ccccc1 | - | MIC | - | - | H37Rv | >6.25 µg/mL |
| O=C(N/N=C/c1ccc(OCCO)cc1)c1ccncc1 | - | MIC | - | - | - | 0.1 µg/mL |
| COc1c(-c2ccc3c(c2)OCO3)oc2cc(O)cc(O)c2c1=O | BACTEC | inhibition | - | 12.5 µg/mL | H37Rv | -16% |
| Cc1ccc(/C=N/N=c2\scc(-c3cc4cc(Br)ccc4oc3=O)n2Cc2ccccc2)cc1 | - | MIC | - | - | H37Rv | >6.25 µg/mL |
| O=C(Cc1nn(Cc2ccc(Br)cc2F)c(=O)c2ccccc12)NN=C(c1ccccc1)c1ccccc1 | - | MIC | - | - | Multidrug-resistant (MDR) | 0.72 µM |
| O=C(N/N=C/c1ccccc1)c1cccnc1 | - | MIC | - | - | - | 1 µg/mL |
| CC(C)=CCC[C@H](C)C1CC[C@@H](C)c2c(OC3C(CO)OC(O)C(O)C3O)cc(C)cc21 | resazurin | MIC | - | - | H37Rv | >200 µM |
| Nc1cc(S(N)(=O)=O)ccc1SSc1ccc(S(N)(=O)=O)cc1N | BACTEC | inhibition | - | 12.5 µg/mL | H37Rv | 0% |
| COc1c(OC)[n+](=O)c2ccccc2n1[O-] | - | MIC | - | - | H37Rv | 31.2 µg/mL |
| CC(C)(O)/C1=C/C=C/CCCCCCCCCC1 | resazurin | MIC bound | - | - | H37Rv | >6.25 µg/mL |
| C/C(=N/NC(=O)c1cccnc1)c1ccccc1 | - | MIC | - | - | - | 1 µg/mL |
| Cc1ccn2c(C(=O)NCc3ccc4c(c3)CCO4)c(C(F)(F)F)nc2c1 | resazurin | MIC90 | - | - | H37Rv | <2 µM |
| Cc1cc(O)c2c(c1)C([C@@H](C)CCCC1OC1(C)CO)CC[C@H]2C | resazurin | MIC | - | - | H37Rv | >200 µM |
| O=C(NO)c1cnccn1 | BACTEC | MIC | - | - | H37Rv | ≥12.5 µg/mL |
| CO[C@H]1/C=C/O[C@@]2(C)Oc3c(C)c(O)c4c(O)c(c(/C=N/N5CCC(N(C)C)CC5)c(O)c4c3C2=O)NC(=O)/C(C)=C\C=C\[C@H](C)[C@H](O)[C@@H](C)[C@@H](O)[C@@H](C)[C@H](OC(C)=O)[C@@H]1C | - | MIC | - | - | H37Rv | 2 µg/mL |
| CC(C)N=c1cc2n(-c3ccc(Cl)cc3)ccnc-2cc1Nc1ccc(Cl)cc1 | resazurin | MIC90 | - | - | H37Rv | 18.89 µg/mL |
| O=C1Nc2ccccc2N=NN1CCCl | BACTEC | MIC bound | - | - | H37Rv | >12.5 µg/mL |
| O=C(NN=Cc1ccco1)c1ccccc1Sc1ccccc1 | resazurin | MIC90 | - | - | H37Rv | >50 µg/mL |
| COc1c(OCC=C(C)C)c2occc2c2oc(=O)ccc12 | resazurin | EC50 | - | - | H37Ra | 8.2 µg/mL |
| COC(OC)c1c[n+](=O)c2ccccc2n1[O-] | - | MIC | - | - | H37Rv | 15.6 µg/mL |
| COc1c2ccoc2c(OC)c2oc(=O)ccc12 | resazurin | EC50 | - | - | H37Ra | >100 µg/mL |
| O=C(O)c1ccc([N+](=O)[O-])cc1F | BACTEC | MIC bound | - | - | H37Rv | >12.5 µg/mL |
| CO[C@H]1/C=C/O[C@@]2(C)Oc3c(C)c(O)c4c(O)c(c(/C=N/N5CCOCC5)c(O)c4c3C2=O)NC(=O)/C(C)=C\C=C\[C@H](C)[C@H](O)[C@@H](C)[C@@H](O)[C@@H](C)[C@H](OC(C)=O)[C@@H]1C | - | MIC | - | - | H37Rv | 0.2 µg/mL |
| O=C(Cc1nn(Cc2ccc(Br)cc2F)c(=O)c2ccccc12)N/N=C/c1ccc(F)cc1 | - | MIC | - | - | Multidrug-resistant (MDR) | 0.81 µM |
| O=C(Nc1ccccc1)c1c(O)[nH]c(=S)[nH]c1=O | BACTEC | inhibition | - | 12.5 µg/mL | H37Rv | 20% |
| CO[C@H]1/C=C/O[C@@]2(C)Oc3c(C)c(O)c4c(O)c(c(/C=N/O)c(O)c4c3C2=O)NC(=O)/C(C)=C\C=C\[C@H](C)[C@H](O)[C@@H](C)[C@@H](O)[C@@H](C)[C@H](OC(C)=O)[C@@H]1C | - | MIC | - | - | H37Rv | 5 µg/mL |
| COc1ccc(/C=N/NC(=O)c2ccncc2)c(O)c1 | - | MIC | - | - | - | 1 µg/mL |
| COc1c(C)[nH]ccc1=O | BACTEC | inhibition | - | 12.5 µg/mL | H37Rv | 0% |
| Cc1cn2c(C(=O)NCc3ccc(N4CCN(c5ccc(S(F)(F)(F)(F)F)cc5)CC4)cc3)c(C)nc2s1 | resazurin | MIC90 | - | - | H37Rv | <2 µM |
| O=C(N/N=C/c1ccc2c(c1)OCO2)c1ccncc1 | - | MIC | - | - | - | 1 µg/mL |
| O=C(Cc1nn(Cc2ccc(Br)cc2F)c(=O)c2ccccc12)N/N=C(\c1ccccc1)c1ccc(Br)cc1 | - | MIC | - | - | Multidrug-resistant (MDR) | 1.26 µM |
| CCCCOc1ccc(/C=N/NC(=O)c2ccncc2)cc1 | - | MIC | - | - | - | 1 µg/mL |
| NC(=O)N(CCO)/N=C/c1ccc([N+](=O)[O-])o1 | resazurin | inhibition | - | 6.25 µg/mL | H37Rv | -28% |
| CCCOc1ccc(/C=N/NC(=O)c2ccncc2)cc1 | - | MIC | - | - | - | 1 µg/mL |
| O=c1oc2ccc(Br)cc2cc1-c1cs/c(=N\N=C\c2cc(Br)ccc2O)n1Cc1ccccc1 | - | inhibition | - | 6.25 µg/mL | H37Rv | <11% |

The last 7 rows once more:

SMILES | read by | endpoint | conditions | tested at | strain | value
Cc1cn2c(C(=O)NCc3ccc(N4CCN(c5ccc(S(F)(F)(F)(F)F)cc5)CC4)cc3)c(C)nc2s1 | resazurin | MIC90 | - | - | H37Rv | <2 µM
O=C(N/N=C/c1ccc2c(c1)OCO2)c1ccncc1 | - | MIC | - | - | - | 1 µg/mL
O=C(Cc1nn(Cc2ccc(Br)cc2F)c(=O)c2ccccc12)N/N=C(\c1ccccc1)c1ccc(Br)cc1 | - | MIC | - | - | Multidrug-resistant (MDR) | 1.26 µM
CCCCOc1ccc(/C=N/NC(=O)c2ccncc2)cc1 | - | MIC | - | - | - | 1 µg/mL
NC(=O)N(CCO)/N=C/c1ccc([N+](=O)[O-])o1 | resazurin | inhibition | - | 6.25 µg/mL | H37Rv | -28%
CCCOc1ccc(/C=N/NC(=O)c2ccncc2)cc1 | - | MIC | - | - | - | 1 µg/mL
O=c1oc2ccc(Br)cc2cc1-c1cs/c(=N\N=C\c2cc(Br)ccc2O)n1Cc1ccccc1 | - | inhibition | - | 6.25 µg/mL | H37Rv | <11%

ECn is the concentration giving n% inhibition of infection, replication or growth. MIC50, MIC90 and the like: level of inhibition, or share of isolates inhibited. Rows are shuffled and stem from different studies. MIC bound: limit read from a one-dose screen. An empty or dashed field is not shown.